{"source": "paper PMC3422170", "target": "T1, DBP (DNA-binding protein) (Bombyx mori nuclear polyhedrosis virus (BmNPV)) (UniProt P24649)", "T1 sequence (looked up, limits assumed)": "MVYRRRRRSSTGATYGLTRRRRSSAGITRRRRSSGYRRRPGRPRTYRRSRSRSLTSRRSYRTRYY", "assay": "EMSA", "conditions": "100 ng protein; recombinant protein; single-stranded DNA", "note": "For at least one entry, the source does not settle the construct or the ends of the probe. Where a protein sequence is shown, tags need not be part of it.", "data": [{"sequence": "CCGAAGCTTGCAAATAAATAAGTATTGCAAATAAATAAGTATTGCAAATAAATAAGTATTCTCGAGGCCATGCCAT [3rep ssDNA (polh promoter, 3 repeats)]", "values": [{"measurement": "binding result", "value": "binds"}]}]}
